Experimental data taken from PubChem BioAssay AID1259415 (National Center for Advancing Translational Sciences (NCATS), 2018).
The list shows a part of the results, in another mix than the full data. Results filed as inconclusive are left out. The source made the active and inactive calls. Rule as the data show it: active = activity change below about -60%; inconclusive = no clear call, values can overlap the other calls; inactive = above about -39%.

Assay: qHTS Assay for inhibitors of the human cytomegalovirus (HCMV)
Conditions: HFF cells, HCMV-luciferase reporter, 72 h; at 57.5 µM; active compounds read low
Text: NCGC Assay Overview: Infection with human cytomegalovirus (HCMV) continues to pose significant threats for pregnant women and immunocompromised hosts. HCMV causes serious morbidity and mortality in transplant recipients, and congenital HCMV is the leading infectious cause of mental retardation and deafness in children. In the 1990s, the annual costs associated with the disease burden of congenital CMV were estimated at around $2 billion. A HCMV vaccine is not available yet and HCMV therapies result in intolerable side effects and emergence of drug resistant viruses. […] Towards this goal we have developed and characterized a luciferase HCMV reporter that was initially used in 96 well plates and then optimized to 1536-well plates for utilization in screening of the MLSMR collection, the NGCG diversity collection and the NCGC Pharmaceutical Collection of approved and investigational drugs.
NCGC Assay Protocol Summary:
This is a cell-based assay for HCMV inhibition in HFFs cells. The screening used 2 compound doses and the HCMV-luciferase at MOI of 1 PFU/cell. Cells were treated and infected with HCMV. At 72 h post infection cell lysates were collected and luciferase activity was determined using the Glomax-Multi + Detection System (Promega, Madison, WI). Data were normalized to the controls for basal activity (buffer only) and known HCMV inhibitors Salinmoycin. […]
% is scaled to controls: 0 for no effect and ±100 for the full control effect.

| SMILES | activity change, negative = inhibition |
| --- | --- |
| Cc1ccc(C)c(NP(C)(=O)Oc2ccccc2)c1 (stereo unspecified) | inactive: 11.4% |
